Compound potency records, mixed from different reports. Data source: NIAID ChemDB in PubChem.

Shared fields: whole-cell or culture tests; organism: Hepatitis B virus; read-out: EC50

ECn: concentration that inhibits the pathogen or its effect by n%. Lines come from different laboratories, so protocols vary. An empty or dashed field is not shown.

SMILES	cells	strain or isolate	result
COC(=O)c1cc2ccc(N)cc2[nH]1	-	-	0.31 µg/mL
Nc1ncn([C@@H]2CC[C@H](CO)O2)c(=O)n1	-	-	1.5 µM
CNC(=O)c1cnc(SC)nc1Nc1ccc2[nH]ncc2c1	HepG2.2.15	-	<1 µg/mL
Nc1ncc(I)c2c1ncn2[C@@H]1C[C@H](O)[C@@H](O)[C@H]1O	HepG2.2.15	-	0.808 µM
CCOCC1=C(C(=O)OC)C(c2ccc(F)cc2Cl)N=C(c2ncc(F)cc2F)N1	HepG2.2.15	-	0.2 µM
Nc1nc2c(ncn2[C@@H]2O[C@H](CO)C(O)(C(F)(F)F)[C@H]2O)c(=O)[nH]1	-	-	≥100 µM
COC(=O)C1=C(CN2CCN(C(=O)OC)CC2)NC(c2ncc(F)cc2F)=NC1c1ccc(F)cc1Br	HepG2.2.15	-	0.04 µM
COc1cc(N)cc2[nH]cc(C(=O)O)c12	-	-	0.64 µg/mL
C[C@]1(CO)CO[C@H](n2cnc3c(=O)[nH]c(N)nc32)C1	-	-	>100 µM
Nc1nc(F)cc2c1ncn2[C@H]1O[C@H](CO)[C@@H](O)[C@@H]1O	-	-	>10 µM
CSc1ncc(C(=O)NN2CCOCC2)c(Nc2ccc3[nH]ncc3c2)n1	HepG2.2.15	-	0.1 µg/mL
COC(=O)C1=C(CCC(=O)NC2CCCC2)NC(c2ccccn2)=NC1c1ccccc1Cl	HepG2.2.15	-	>100 µM
C=C1C(COP(=O)(N[C@@H](C)C(=O)OC)Oc2ccccc2)C(O)C(F)C1n1cnc2c(N)ncnc21	Huh7	-	0.062 µM
CSc1ncc(C(N)=O)c(Nc2ccc3cn[nH]c3c2)n1	HepG2.2.15	-	<1 µg/mL
Nc1ccn([C@@H]2CS[C@H](CO)O2)c(=O)n1	HepG2.2.15	-	50 µM
Cc1cccc(NC(=O)c2c(C)noc2C)c1	HepG2.2.15	-	2 µM
O=c1[nH]c(=O)n([C@H]2CC[C@@H](CO)O2)cc1[N+](=O)[O-]	HepG2	-	>10 µM
Cc1c(I)c(=O)[nH]c(=O)n1COCCO	D88	Mutations L180M M204V	25 µM
CC1=CC[C@]2(C)CC[C@@]3(C)[C@H](C(C(C)C)=C[C@@H]3O)[C@H]2CC1	-	-	43 µg/mL
Nc1nc(=O)n([C@H]2C[C@H](O)[C@@H](CO)O2)cc1[N+](=O)[O-]	HepG2	-	>10 µM
CSc1ncc(C(=O)NCc2cccnc2)c(Nc2ccc3cn[nH]c3c2)n1	HepG2.2.15	-	<0.1 µg/mL
C[C@]1(CO)CO[C@@H](n2ccc(N)nc2=O)C1	-	-	>100 µM
Nc1nc(=O)c2ncn([C@@H]3O[C@H](CO)[C@@H](O)[C@H]3O)c2c(=O)[nH]1	2.2.15	-	>10 µM
Nc1cn(COCCO)c(=O)[nH]c1=O	B1	Mutation M204I	30 µM
COC(=O)C1=C(CN2CCN(c3ncc(F)cn3)CC2)NC(c2ncc(F)cc2F)=N[C@H]1c1ccc(F)cc1Cl	HepG2.2.15	-	0.031 µM
Nc1nc(=O)n([C@@H]2C[C@H](O)[C@@H](CO)O2)cc1[N+](=O)[O-]	HepG2	-	10 µM
C=C1[C@H](CO)[C@H]1Cn1cnc2c(=O)[nH]cnc21	-	-	>100 µM
COC(=O)C1=C(C)NC(c2ccccn2)=NC1c1ccccc1	HepG2.2.15	-	4 µM
CSc1ncc(C(=O)NCc2cccnc2)c(Nc2ccc3[nH]ncc3c2)n1	HepG2.2.15	-	<0.1 µg/mL
Nc1nc(F)cc2c1ncn2[C@@H]1O[C@H](CO)[C@@H](O)[C@H]1O	-	-	>10 µM
C[C@]1(CO)CO[C@H](n2cnc3c(N)ncnc32)C1	-	-	>100 µM
CC1=CC(c2ccccc2Cl)N=C(c2ccccn2)N1	HepG2.2.15	-	>50 µM
COC(=O)c1cc(C(F)(F)F)c2c(OC)cc(N)cc2n1	-	-	0.74 µg/mL
O=c1ccn(COCCO)c(=S)[nH]1	B1	Mutation M204I	30 µM
COC(=O)C1=C(CN2CCN(C(=O)Oc3ccccc3)CC2)NC(c2ncc(F)cc2F)=N[C@H]1c1ccc(F)cc1Br	HepG2.2.15	-	0.05 µM
C[C@]1(CO)CO[C@@H](n2ccc(=O)[nH]c2=O)C1	-	-	>100 µM
CSc1ncc(C(=O)NCCO)c(Nc2ccc3cn[nH]c3c2)n1	HepG2.2.15	-	<0.1 µg/mL
O=c1[nH]c(=O)n([C@@H]2C[C@@H](O)[C@H](CO)O2)cc1I	-	-	>100 µM
Nc1nc(=O)n(C2CC[C@@H](CO)O2)cc1[N+](=O)[O-]	HepG2	-	>10 µM
Nc1ccn([C@@H]2O[C@H](CO)[C@](O)(C(F)(F)F)[C@H]2O)c(=O)n1	-	-	≥100 µM
CCOCC1=C(C(=O)OCC)C(c2ccc(F)cc2Cl)N=C(c2ncc(F)cc2F)N1	HepG2.2.15	-	0.15 µM
CC(C)=CCC[C@]1(C)CC[C@]2(C)[C@H]3CC[C@@]4(C)[C@@H](CC[C@H](O)[C@@H]4C)[C@]3(C)CC[C@@]2(C)C1	HepG2.2.15	-	30.7 µM
CCOC(=O)c1cn(COCCO)c(=S)[nH]c1=O	B1	Mutation M204I	20 µM
COC(=O)C1=C(CN2CCC3(CN(C)CCO3)C2)NC(c2ncc(F)cc2F)=N[C@H]1c1ccc(F)cc1Cl	HepG2.2.15	-	0.05 µM
C=C1[C@H](CO)[C@H]1Cn1cnc2c(N)nc(N)nc21	-	-	>100 µM
Nc1nc(Cl)c(F)c2ncn([C@@H]3O[C@H](CO)[C@@H](O)[C@H]3O)c12	-	-	>10 µM
COC(=O)c1cc(C(=O)OC)c2c(OC)cc(N)cc2n1	-	-	0.2 µg/mL
Cc1cc(=O)[nH]c(=O)n1COCCO	B1	Mutation M204I	30 µM
CNc1nc(F)cc2c1ncn2[C@@H]1O[C@H](CO)[C@@H](O)[C@H]1O	-	-	>10 µM
N#CCCC1C(=O)c2ccc(-c3ccc(F)c(F)c3)cc2OC12CCCC2	HepG2.2.15	-	0.002 µM
O=c1[nH]c(=O)n(COCCO)cc1Br	D88	Mutations L180M M204V	73 µM
COC(=O)c1cc2c(OC)cc(N)cc2o1	-	-	4.19 µg/mL
Nc1nc(F)c(F)c2ncn([C@@H]3O[C@H](CO)[C@@H](O)[C@H]3O)c12	-	-	10 µM
C=C1[C@H](CO)[C@H]1Cn1cnc2c(=O)[nH]c(N)nc21	-	-	>100 µM
CCOCC1=C(C(=O)OC)[C@H](c2ccc(F)cc2Cl)N=C(c2ncc(F)cc2F)N1	HepG2.2.15	-	0.06 µM
COC(=O)C1=C(c2cccc(OC)c2)NC(c2ccccn2)=NC1c1ccccc1Cl	HepG2.2.15	-	>100 µM
COC(=O)c1cc(=O)c2c(OC)cc(N)cc2[nH]1	-	-	0.1 µg/mL
CSc1ncc(C(=O)NCCN(C)C)c(Nc2ccc3cn[nH]c3c2)n1	HepG2.2.15	-	<0.1 µg/mL
Nc1ccn([C@@H]2CS[C@H](CO)O2)c(=O)n1	HepG2	-	0.05 µM
O=C(NC1CC2(C1)CC(c1nc3cc(Cl)ccc3o1)C2)C1CCS(=O)(=O)CC1	-	-	6.7 µg/mL
C[C@]1(CO)CO[C@@H](n2cc(F)c(N)nc2=O)C1	-	-	>100 µM
Cc1cc(NC(=O)c2cc(-c3ccccc3)nc3ccccc23)ccc1F	HepG2.2.15	-	0.6 µM